Results of unrelated studies side by side (data: NIAID ChemDB).

Common to all: whole-cell or culture tests; agent: Rhinovirus; endpoint: inhibition

Blank or dashed fields: not listed here. Percent inhibition refers to the dose given; in toxicity tests it is the harm to the cells. Neighbouring rows are from separate reports. a–b is a range or a potency band.

compound	strain or isolate	cells	dose	method	value
Cc1ccc(Cn2cnc3c(N(C)C)nc(C(F)(F)F)nc32)cc1	Serotype 5	M-HELA	8 µM	plaque count	18%
O=S(=O)([O-])c1ccc2c(S(=O)(=O)[O-])cc(S(=O)(=O)[O-])cc2c1		Human embryonic lung cells	10 µg/mL	cytopathic effect	5%
CC1(C)COC(c2ccc(OCCN3CCN(c4ccc(Cl)nn4)CC3)cc2)=N1	17 serotypes		32 µg/mL		71%
CN(C)c1nc(C(F)(F)F)nc2c1ncn2Cc1ccc(Cl)c(Cl)c1	Serotype 21	M-HELA	8 µM	plaque count	29%
O=S(=O)([O-])c1ccc(NS(=O)(=O)c2ccccc2)c2c(S(=O)(=O)[O-])cccc12		Human embryonic lung cells	50 µg/mL	cytopathic effect	68%
CN(C)c1ccc(Cn2cnc3c(N(C)C)nc(C(F)(F)F)nc32)cc1	Serotype 3	M-HELA	8 µM	plaque count	33%
N#Cc1cc([N+](=O)[O-])ccc1Oc1ccc(Cl)c(Cl)c1	HANK	VERO	0.06 µg/mL	plaque count	2.63%
CN(C)c1nc(C(F)(F)F)nc2c1ncn2Cc1ccc(Cl)c(N)c1	Serotype 31	M-HELA	8 µM	plaque count	29%
Cc1cc(-c2ccc(N=Nc3ccc4c(S(=O)(=O)O)cc(S(=O)(=O)O)c(N)c4c3O)c(C)c2)ccc1N=Nc1ccc2c(S(=O)(=O)O)cc(S(=O)(=O)O)c(N)c2c1O		Human embryonic lung cells	5 µg/mL	cytopathic effect	0%
FC(F)(F)c1cccc(C2CCN(c3ccc(Cl)nn3)C2)c1	100 serotypes		17 µg/mL		71%
O=C(O)Cc1csc(/N=C2\SC[C@@H]3Cc4ccccc4CN23)n1	Serotype 26	MRC-5	125 µg/mL	cytopathic effect	80–100%
Nc1ccc(S(=O)(=O)[O-])c2c(S(=O)(=O)[O-])ccc(O)c12		Human embryonic lung cells	10 µg/mL	cytopathic effect	80%
Cc1cccc(N2CCN(c3ccc(Br)nn3)CC2)c1	17 serotypes		0.024 µg/mL		18%
Cc1ccc(Cn2cnc3c(N(C)C)nc(C(F)(F)F)nc32)c(C)c1	Serotype 15	M-HELA	8 µM	plaque count	30%
Cc1cc(CCCCCCCOc2ccc(C3=NCCO3)cc2)on1	17 serotypes		1.575 µg/mL		53%
O=C(O)c1cc(S(=O)(=O)[O-])ccc1O		Human embryonic lung cells	5 µg/mL	cytopathic effect	0%
CC(C)Oc1ccc(Cn2cnc3c(N(C)C)nc(C(F)(F)F)nc32)cc1	Serotype 21	M-HELA	8 µM	plaque count	40%
O=S(=O)([O-])c1cc(NS(=O)(=O)c2ccccc2)c2c(S(=O)(=O)[O-])cc(S(=O)(=O)[O-])cc2c1		Human embryonic lung cells	5 µg/mL	cytopathic effect	20%
CN(C)c1nc(C(F)(F)F)nc2c1ncn2Cc1ccccc1	Serotype 13	M-HELA	8 µM	plaque count	22%
Nc1c(S(=O)(=O)[O-])cc2cc(S(=O)(=O)[O-])ccc2c1O		Human embryonic lung cells	10 µg/mL	cytopathic effect	65%
Cc1ccc(N2CCC(c3cccc(C(F)(F)F)c3)C2)nn1	17 serotypes		2.75 µg/mL		71%

2 of the rows above, restated:

compound,strain or isolate,cells,dose,method,value
Cc1cccc(N2CCN(c3ccc(Br)nn3)CC2)c1,17 serotypes,,0.024 µg/mL,,18%
O=S(=O)([O-])c1ccc(NS(=O)(=O)c2ccccc2)c2c(S(=O)(=O)[O-])cccc12,,Human embryonic lung cells,50 µg/mL,cytopathic effect,68%